{
  "source": "PubChem BioAssay AID687014",
  "about": "(The Scripps Research Institute Molecular Screening Center, 2013)",
  "note": "The entries are a selection whose mix differs from that of the whole data set. The source made the active and inactive calls.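 Rule for the calls: active = activation above a cutoff set at the mean of all screened compounds plus 3 SD (cut at about 10% in these data); inactive = the rest.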",
  "data": [
    {"test_system": "Nuclear hormone receptor DAF-12 (Heterodera glycines), GAL4 fusion", "test": "hgDAF-12 GAL4 fusion reporter activation – cell-based, luminescence, HEK293, UAS-luciferase, primary screen (AID 687014);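 note: 0% = DMSO wells and 100% = sodium butyrate wells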", "conditions": "HEK293 GAL4-hgDAF12 UAS-luciferase reporter, agonist luminescence; at 6.8 µM; active compounds read high; normalized to butyrate control", "values": [
      {"compound": "O=C(NCC1(N2CCCCC2)CCCCC1)c1cccc(C(F)(F)F)c1", "activation": "inactive: 2%"},
      {"compound": "COc1cc(C(=O)NCC2(N3CCCCC3)CCCCC2)ccc1OC(F)F", "activation": "inactive: -1.2%"},
      {"compound": "O=C(NCC1(N2CCOCC2)CCCCC1)c1cc(=O)[nH]c2ccccc12", "activation": "inactive: -1.8%"},
      {"compound": "CN1CCN(CCOC(=O)C(O)(c2ccccc2)c2ccccc2)CC1", "activation": "inactive: 2.62%"},
      {"compound": "CC(C)c1ccc(C(=O)NCC2(N3CCOCC3)CCCCC2)cc1", "activation": "inactive: -2.88%"},
      {"compound": "COc1ccc(NC2CCN(C(=O)OC(C)(C)C)CC2)cc1", "activation": "inactive: 2.89%"},
      {"compound": "CCCCn1nnnc1C(c1cccc2ccccc12)N1CCC(n2c(=O)[nH]c3ccccc32)CC1", "note": "(stereo unspecified)", "activation": "inactive: -2.99%"},
      {"compound": "O=C(NCC1(N2CCCCC2)CCCCC1)c1ccc(OC(F)F)cc1", "activation": "inactive: 1.52%"},
      {"compound": "CC(C)(C)n1nnnc1C(c1ccccc1OC(F)(F)F)N1CCC(n2c(=O)[nH]c3ccccc32)CC1", "note": "(stereo unspecified)", "activation": "inactive: 3.6%"},
      {"compound": "O=c1[nH]c2ccccc2n1C1CCN(C(c2ccccc2OC(F)(F)F)c2nnnn2C2CCCC2)CC1", "note": "(stereo unspecified)", "activation": "inactive: -0.6%"},
      {"compound": "N#CC1(Nc2ccccc2)CCN(CCc2ccccc2)CC1", "activation": "inactive: 2.22%"},
      {"compound": "CCN1CCC(Nc2ccc(Cl)cc2)CC1", "activation": "inactive: 2.26%"},
      {"compound": "CSc1ccc(C(=O)NCC2(N3CCOCC3)CCCCC2)cc1", "activation": "inactive: -0.97%"},
      {"compound": "O=C(NCC1(N2CCCCC2)CCCCC1)c1cccc([N+](=O)[O-])c1", "activation": "inactive: 2.96%"},
      {"compound": "CN1CCC(Nc2cccc(F)c2)CC1", "activation": "inactive: 0.3%"},
      {"compound": "O=C(NCC1(N2CCCCC2)CCCCC1)c1cncc(Br)c1", "activation": "inactive: 4.48%"},
      {"compound": "COc1ccc(C(c2nnnn2C2CCCC2)N2CCC(n3c(=O)[nH]c4ccccc43)CC2)cc1", "note": "(stereo unspecified)", "activation": "inactive: -0.03%"},
      {"compound": "CCCOc1ccc(C(=O)NCC2(N(C)C)CCCCC2)cc1OC", "activation": "inactive: -1.34%"},
      {"compound": "Cc1ccc(C(=O)NCC2(N(C)C)CCCCC2)o1", "activation": "inactive: 0.67%"},
      {"compound": "CC(C)c1ccc(NC2CCN(C(=O)OC(C)(C)C)CC2)cc1", "activation": "inactive: 7.13%"},
      {"compound": "CN(C)c1cccc(C(=O)NCC2(N3CCCCC3)CCCCC2)c1", "activation": "inactive: -1.86%"},
      {"compound": "COc1ccc(CN(CCCl)CCCl)cc1Cl", "activation": "inactive: -5.72%"},
      {"compound": "COC(=O)C1(Nc2ccccc2)CCN(Cc2ccccc2)CC1", "activation": "inactive: -0.05%"},
      {"compound": "CCC(c1nnnn1C(C)(C)C)N1CCC(n2c(=O)[nH]c3ccccc32)CC1", "note": "(stereo unspecified)", "activation": "inactive: -0.77%"},
      {"compound": "O=C(NCC1(N2CCOCC2)CCCCC1)c1cc(F)c(F)cc1Cl", "activation": "inactive: 0.24%"},
      {"compound": "COc1cc(OC)c(C(=O)NCC2(N(C)C)CCCCC2)cc1OC", "activation": "inactive: -0.15%"}
    ]}
  ]
}
